{"source": "patent US5985289", "about": "“Haemophilus somnus outer membrane protein extract enriched with iron-regulated proteins” (dated 1999)", "target": "P. haemolytica leukotoxin (P. haemolytica) (UniProt P16535)", "assay": "standard ELISA of calf sera, group mean of six control calves"}
{"substance": "serum of control calves vaccinated with placebo (sterile saline combined with adjuvant, Vaccination Trial C) (polyclonal serum or antibody)", "values": [{"measurement": "Anti-Leukotoxin Titer at 10 Days After Second Vaccination (mean)", "value": 3880, "unit": "titer"}]}
